Pooled drug test results. Numbers come from NIAID ChemDB, via PubChem.

All rows: tests in culture; agent: Mycobacterium tuberculosis

Lines come from different laboratories, so protocols vary. A number after MIC or MFC names an inhibition level or a share of isolates. Percent inhibition refers to the dose given; in toxicity tests it is the harm to the cells. MIC bound comes from a single tested concentration. ECn is the concentration giving n% inhibition of infection, replication or growth. An empty or dashed field is not shown.

SMILES	strain or isolate	endpoint	cell line	method	changes	setting	tested at	result
CNC(=O)N1CCC(n2c(C)nc(C(=O)NC3CC3)c2C)CC1	18b	MIC		resazurin				8 µg/mL
CCCCCCCCCCCCCCCCOc1ccc(S(=O)(=O)Nc2cc(C(=O)OC)cc(C(=O)OC)c2)cc1[N+](=O)[O-]	H37Rv	inhibition		BACTEC			12.5 µg/mL	4%
CCc1ccnc2c([N+](=O)[O-])cc(C(C)=O)c(OC(C)C)c12	Isoniazid-resistant	MIC						50 µg/mL
O=C(Nc1ccc(C(F)(F)F)cc1)c1cc(Cl)ccc1OP(=O)(Oc1ccccc1)Oc1ccccc1	My 331/88	MIC				14 d		2 µM
COc1ccc(/C=N/Nc2ccnc3cc(Cl)cc(Cl)c23)c2ccccc12	H37Rv	inhibition	VERO				12.5 µg/mL	10%
CC(NC(=O)c1c(F)cccc1Cl)c1nnc(SCc2ccc(F)cc2)n1Cc1cccnc1	H37Rv (ATCC 27294)	MIC		broth dilution		14 d		>64 µg/mL
Cc1ccc(CNC(=O)c2c(-c3ccc(Br)s3)noc2C)o1	Clinical isolate	MIC		resazurin				8 µg/mL
CCOc1ccc(NC(=O)C(N=Nc2ccc(S(=O)(=O)Nc3nnc(C)s3)cc2)C(C)=O)cc1	H37Rv	inhibition		BACTEC			12.5 µg/mL	0%
CCCCNC(=O)c1[nH]c2ccc(NS(=O)(=O)CCCC)cc2c1C	H37Rv	MIC90		resazurin				1.56 µM
CCC1=CCC2C(=O)C3C(C(=O)C2C1)C1(c2ccccc2)OC3(c2ccccc2)c2ccccc21	H37Rv	inhibition		BACTEC			12.5 µg/mL	13%
CC[C@H]1OC(=O)[C@H](C)[C@@H](O[C@H]2C[C@@](C)(OC)[C@@H](O)[C@H](C)O2)[C@H](C)[C@@H](O[C@@H]2O[C@H](C)C[C@H](N(C)C)[C@H]2O)[C@](C)(O)C[C@@H](C)C(=O)[C@H](C)[C@@H](O)[C@]1(C)O	DRUG-SUS	MIC90						>8 µg/mL
COc1c(C(C)=O)cc(N)c2nc(C(C)(C)C)ccc12	H37Rv	inhibition					6.25 µg/mL	0%
CCCCS(=O)(=O)Nc1ccc2[nH]c(C(N)=O)c(C)c2c1	DRM167 16x3	MIC90		resazurin	V123A DG167-resistant			>100 µM
O=C(CCl)c1ccc(Sc2ccc(C(=O)CCl)cc2)cc1	H37Rv	MIC						50 µg/mL
C[C@@H]1CN(c2c(F)c(N)c3c(=O)c(C(=O)O)cn(C4CC4)c3c2F)C[C@H](C)N1	MDR	MIC50						0.5 µg/mL
O=C1c2cc(Cl)ccc2OP(=O)(c2ccccc2)N1c1ccc(C(F)(F)F)cc1	My 331/88	MIC				14 d		1 µM
Cc1cc(=O)c2c(O)c3c(O)cc(=O)c4c3c3c(cc(O)c1c23)C(C)(C)C=4O	18b	MIC		resazurin				0.5 µg/mL
Cc1cc(NN)c2cc(C3CCCCC3)ccc2n1	H37Rv	inhibition	VERO				12.5 µg/mL	100%
O=C(Nc1ccc(C(F)(F)F)cc1)c1cc(Cl)ccc1OP(=O)(c1ccccc1)c1ccccc1	9449/2007	MIC				21 d		1 µM
CCCCS(=O)(=O)Nc1ccc2[nH]c(C(=O)NCCCc3ccccc3)c(C)c2c1	H37Rv	MIC90		resazurin				>100 µM
O=C(Nc1ccccc1)c1ccccc1OP(=O)(Oc1ccccc1)c1ccccc1	My 331/88	MIC				7 d		250 µM
CN1c2ccccc2CCC1CCc1ccc2c(c1)OCO2	MT6	MIC						>100 µg/mL
O=C(c1ccccc1)N1C(=O)N(c2ccccc2)C(=Nc2ccccc2)C1=Nc1ccccc1	H37Rv	MIC bound		BACTEC				>12.5 µg/mL
O=C(c1ccc(-c2ccc(C(=O)C(Cl)Cl)cc2)cc1)C(Cl)Cl	H37Rv	MIC						1.56 µg/mL
CC[C@H]1OC(=O)[C@H](C)[C@@H](O[C@H]2C[C@@](C)(OC)[C@@H](O)[C@H](C)O2)[C@H](C)[C@@H](O[C@@H]2O[C@H](C)C[C@H](N(C)C)[C@H]2O)[C@](C)(O)C[C@@H](C)CN(C)[C@H](C)[C@@H](O)[C@]1(C)O	MDR	MBC90						>8 µg/mL
CCCCS(=O)(=O)Nc1ccc2[nH]c(C(=O)NC(C)C3CC3)c(C)c2c1	H37Rv	MIC90		resazurin				3.1 µM
NNC(=O)c1ccncc1	Isolate A	MIC						0.125 µg/mL
CCCCS(=O)(=O)Nc1ccc2[nH]c(C(=O)OCC)c(C)c2c1	DRM167 32x2	MIC90		resazurin	P206T DG167-resistant			>100 µM
C[C@H]1COc2c(N3CCN(C)CC3)c(F)cc3c(=O)c(C(=O)O)cn1c23	Drug-resistant	MIC90						0.25 µg/mL
C/C=C/C=C1\C=Cc2c(C(=O)OC)coc(=O)c21	H37Rv	MIC		BACTEC				≥12.5 µg/mL
COC(=O)[C@]12OC[C@@]34[C@@H](CC5=C(C)C(=O)C(O)=C[C@]5(C)[C@H]3[C@@H](O)[C@@H]1O)OC(=O)[C@H](OC(=O)c1ccccc1)[C@@H]24	H37Rv	EC50						>12.5 µg/mL
COc1ccc(CCC2CCc3ccccc3N2C)cc1OC	MT7	MIC						25 µg/mL
COC1=C[C@@H](C)[C@@H]2C[C@H]3OC(O)C[C@H]4[C@](C)(O)[C@H](OC)[C@@H](OC(C)=O)[C@H]([C@@]2(C)C1=O)[C@@]34C	H37Rv	inhibition					12.5 µg/mL	12%
NNC(=O)c1ccncc1	Strain 370	MIC						0.06 µg/mL
O=C(Nc1ccc(Cl)c(Cl)c1)c1cc(Cl)ccc1OP(=O)(Oc1ccccc1)Oc1ccccc1	My 331/88	MIC				7 d		2 µM
CCN(CC)C(=O)c1c(C(=O)OC)c(C)n(NC(N)=O)c1C	H37Rv	inhibition		resazurin			6.25 µg/mL	4%
O=C(O)c1cnccn1	T7505	MIC						480 µg/mL
CN(C)c1ccc(/C=N/Nc2nnc(N/N=C/c3ccc(N(C)C)cc3Cl)c3ccccc23)c(Cl)c1	H37Rv	MIC		BACTEC				>12.5 µg/mL
CC1(C(=O)Nc2cccc(Cl)c2Cl)Cc2ccccc2C(=O)O1	Clinical isolate	MIC		resazurin				4 µg/mL
C/C(=N\NC(=O)c1ccccc1S(N)(=O)=O)C(CN1CCCCC1)C(C1=C(O)C2C=CC=CC2OC1=O)c1ccccc1.Cl	H37Rv	MIC bound		BACTEC				>12.5 µg/mL
CC(C)=CC(=O)O[C@H]1C(=O)O[C@@H]2C[C@H]3[C@H](C)C(=O)C(O[C@@H]4O[C@H](CO)[C@@H](O)[C@H](O)[C@H]4O)=C[C@]3(C)[C@H]3[C@@H](O)[C@H](O)C4(C(=O)O)OC[C@]32[C@@H]14	H37Rv	EC50						>12.5 µg/mL
CC(c1cc(OCC(=O)O)ccc1-c1ccc(C#N)cc1)N1CCN(c2ccccn2)CC1	H37Rv (ATCC 27294)	MIC		broth dilution				32 µg/mL
COC(=O)c1cc(C)n(-c2ccc(C)cc2)c1C	H37Rv	MIC bound		BACTEC				>6.25 µg/mL
O=C(c1ccc(S(=O)(=O)c2ccccc2)cc1)C(Cl)Cl	H37Rv	MIC						12.5 µg/mL
O=C1c2cc(Br)ccc2OP(=O)(c2ccccc2)N1c1ccc(C(F)(F)F)cc1	My 331/88	MIC				7 d		1 µM
c1ccc(-c2nc(N=C3N=c4ccccc4=N3)[nH]c2-c2ccccn2)nc1	H37Rv	MIC		BACTEC				6.25 µg/mL
N#Cc1ccc(-c2ccc(OCC(=O)O)cc2CN2CCN(c3ccccn3)CC2)cc1	H37Rv (ATCC 27294)	MIC		broth dilution				32 µg/mL
O=C1C(Cl)=C(Nc2ccccn2)C(=O)c2ccccc21	H37Rv	MIC		BACTEC				3.13 µg/mL
COc1ccc2c(NN)cc(C)nc2c1	H37Rv	inhibition	VERO				12.5 µg/mL	94%
CCCCS(=O)(=O)Nc1ccc2[nH]c(C#N)c(C)c2c1	DRM167 8x3	MIC90		resazurin	I145T DG167-resistant			>100 µM
COc1c(N2CCNC(C)C2)c(F)cc2c(=O)c(C(=O)O)cn(C3CC3)c12	19 strains	MIC						8 µg/mL
O=C(Nc1ccccc1)c1ccccc1OP(=O)(Oc1ccccc1)Oc1ccccc1	My 331/88	MIC				14 d		250 µM
CCCCCS(=O)(=O)Nc1ccc2[nH]c(C(=O)OCC)c(C)c2c1	H37Rv	MIC90		resazurin				0.049 µM
N[C@H]1CCN(c2nc3c(cc2F)c(=O)c(C(=O)O)cn3C2CC2)C1	H37Rv	inhibition	Macrophages			inside macrophages	0.5 µg/mL	65%
CCCCCCCCOc1c(C(C)=O)cc([N+](=O)[O-])c2nccc(CC)c12	H37Rv	MIC						>6.25 µg/mL
C[C@@H]1C[C@H](O)C(=O)[C@]2(C)[C@H]3[C@H](O)C(=O)[C@H](C)[C@@H]4CC(=O)O[C@H](C[C@@H]12)[C@]34C	H37Rv	EC50						>12.5 µg/mL
COC(=O)c1nccnc1N	H37Rv	MIC bound		BACTEC				>12.5 µg/mL
Cc1cc(N/N=C/c2ccccc2)c2cc(C3CCCCC3)ccc2n1	H37Rv	inhibition	VERO				12.5 µg/mL	100%
C[C@H]1COc2c(N3CCN(C)CC3)c(F)cc3c(=O)c(C(=O)O)cn1c23	Strain 328	MIC						0.25 µg/mL
CCCCCCOc1c(C(C)=O)cc([N+](=O)[O-])c2nccc(CC)c12	H37Rv	MIC						>6.25 µg/mL
O=C(O)c1[nH]c2ccccc2c1CNCCc1ccc(Cl)cc1	18b	MIC		resazurin				16 µg/mL
COC1=C[C@@H](C)[C@@H]2C[C@H]3OC(O)C[C@H]4C(C)=C(OC)C(=O)[C@H]([C@@]2(C)C1=O)[C@@]34C	H37Rv	inhibition					12.5 µg/mL	8%
O=C(c1ccc(-c2cc(Cl)c(O)c(Cl)c2)cc1)C(Cl)Cl	H37Rv	MIC						6.25 µg/mL
NC(N)=NS(=O)(=O)c1ccc(N=Nc2c(O)n(-c3ccccc3)n(-c3ccccc3)c2=O)cc1	H37Rv	MIC		BACTEC				≥12.8 µg/mL
CCN(CC)c1ccc(/C=N/Nc2ccnc3cc(Cl)ccc23)cc1	H37Rv	inhibition	VERO				12.5 µg/mL	100%
Cc1ccc(S(=O)(=O)N(CC(=O)O)c2c[nH]c(C(=O)O)c2)cc1	H37Rv	MIC bound		BACTEC				>6.25 µg/mL
CCCCCCCCOc1c(C(C)=O)cc(N)c2nccc(CC)c12	Ethambutol-resistant	MIC						6.25 µg/mL
O=[N+]([O-])c1ccc(OP2(Oc3ccc([N+](=O)[O-])cc3)=NP(Oc3ccc([N+](=O)[O-])cc3)(Oc3ccc([N+](=O)[O-])cc3)=NP(Oc3ccc([N+](=O)[O-])cc3)(Oc3ccc([N+](=O)[O-])cc3)=N2)cc1	H37Rv	MIC		BACTEC				≥128 µg/mL
NNC(=O)c1ccncc1	Pan-susceptible clinical isolate 7	MIC						0.06 µg/mL
Cc1ccc(-n2c(=O)c3nn4c(=O)n(-c5ccc(C)cc5)c(=O)c4nn3c2=O)cc1	H37Rv	inhibition		BACTEC			12.5 µg/mL	3%
O=C(c1ccc(Cc2ccc(C(=O)C(Cl)Cl)cc2)cc1)C(Cl)Cl	H37Rv	MIC						12.5 µg/mL
Cn1cc(C(=O)/C(Cl)=C(\Cl)C(=O)O)c2ccccc21	H37Rv	inhibition		BACTEC			6.25 µg/mL	0%
CCCCCCCCS(=O)(=O)CC(N)=O	OT2769	MIC						≤12.5 µg/mL
O=[N+]([O-])c1ccc(Cl)c(C(Nc2nncs2)Nc2nncs2)c1	H37Rv	MIC bound		BACTEC				>12.5 µg/mL
O=C(c1ccc(Oc2ccc(C(=O)C(Cl)Cl)cc2)cc1)C(Cl)Cl	H37Rv	MIC						1.56 µg/mL
CCCCC1CCCCCCc2[nH]c(/C=C3\N=C(c4ccc[nH]4)C=C3OC)cc21.Cl	PAS-R	MIC						3.1 µg/mL
O=C(O)COc1ccc(-c2ccccc2Cl)c(CN2CCN(c3ccccn3)CC2)c1	H37Rv (ATCC 27294)	MIC		broth dilution				32 µg/mL
COC1[C@H](O)[C@@H](O)C(O)[C@H](O)[C@H]1O	H37Rv	inhibition		BACTEC			12.5 µg/mL	-9%
NC1CCN(c2c(F)cc3c(=O)c(C(=O)O)cn(C4CC4)c3c2Cl)C1	ATCC 35823	MBC						0.25 µg/mL

4 of the rows above, restated:

SMILES | strain or isolate | endpoint | cell line | method | changes | setting | tested at | result
COc1c(N2CCNC(C)C2)c(F)cc2c(=O)c(C(=O)O)cn(C3CC3)c12 | 19 strains | MIC |  |  |  |  |  | 8 µg/mL
CCCCNC(=O)c1[nH]c2ccc(NS(=O)(=O)CCCC)cc2c1C | H37Rv | MIC90 |  | resazurin |  |  |  | 1.56 µM
COC(=O)[C@]12OC[C@@]34[C@@H](CC5=C(C)C(=O)C(O)=C[C@]5(C)[C@H]3[C@@H](O)[C@@H]1O)OC(=O)[C@H](OC(=O)c1ccccc1)[C@@H]24 | H37Rv | EC50 |  |  |  |  |  | >12.5 µg/mL
O=[N+]([O-])c1ccc(Cl)c(C(Nc2nncs2)Nc2nncs2)c1 | H37Rv | MIC bound |  | BACTEC |  |  |  | >12.5 µg/mL